Results of unrelated studies side by side (data: NIAID ChemDB).

Shared fields: tests on isolated targets; species: Hepatitis C virus

Inhibition is in % at the dose shown (toxicity tests: loss of growth or viability). a–b is a range or a potency band. Neighbouring rows are from separate reports. ICn: concentration for n% inhibition. An empty or dashed field is not shown.

structure,target,measure,dose,result
O=C(O)c1nc(-c2cc3ccccc3s2)[nH]c(=O)c1O,HCV polymerase,IC50,-,<25 µM
O=C(O)c1cnn2c(C3CCCCC3)c(-c3ccc(-c4cccc(Cl)c4)cc3)cnc12,RNA-dependent RNA polymerase,IC50,-,1–10 µM
C=CCN(C(=O)Cc1ccc2ccccc2c1)c1cc(-c2ccccc2)sc1C(=O)O,NS3 ATPase,IC50,-,>20 µM
c1ccc(COc2ccc(-c3cnc4c(-c5nn[nH]n5)cnn4c3C3CCOCC3)cc2)cc1,RNA-dependent RNA polymerase,IC50,-,>10 µM
CC(C)Cc1ccc(-c2cc(NS(=O)(=O)c3ccc(Br)cc3F)c(C(=O)O)s2)cc1,NS3 ATPase,IC50,-,5–20 µM
O=C(Nc1scnc1-c1nc(C(=O)O)c(O)c(=O)[nH]1)c1ccccc1,HCV polymerase,IC50,-,<100 µM
COc1ccc(-c2cccc(Cl)c2)c(-c2ccc3cc(-c4nc5cc(C(=O)O)ccc5n4C4CCCCC4)ccc3n2)c1,NS5B polymerase,inhibition,100 µM,99.18%
O=C(NCc1c(Cl)cccc1Oc1ccccc1)Nc1cscc1-c1nc(C(=O)O)c(O)c(=O)[nH]1,HCV polymerase,IC50,-,<25 µM
COc1ccc(-c2ccc(Cl)cc2)c(-c2ccc3cc(-c4nc5cc(C(=O)O)ccc5n4C4CCCCC4C)ccc3n2)c1,NS5B polymerase,inhibition,100 µM,102%
O=C(O)c1nc(-c2sccc2NC(=O)C2CCc3ccccc3C2)[nH]c(=O)c1O,HCV polymerase,IC50,-,<25 µM
Cc1ccc(C(=O)N(Cc2ccc([N+](=O)[O-])cc2)c2cc(-c3ccccc3)sc2C(=O)O)cc1,NS3 ATPase,IC50,-,<5 µM
O=C(O)c1ccc2c(c1)nc(-c1ccc3nc(-c4ccccc4Br)c(-c4ccccc4)cc3c1)n2C1CCCCC1,NS5B polymerase,inhibition,33 µM,98.7%
O=C(NCc1cc(Br)cs1)Nc1cscc1-c1nc(C(=O)O)c(O)c(=O)[nH]1,HCV polymerase,IC50,-,<25 µM
CC(C)N(C(=O)c1ccc(Cl)cc1Cl)c1cc(-c2ccc(C(=O)O)cc2)sc1C(=O)O,NS3 ATPase,IC50,-,<5 µM
O=C(O)c1ccc2c(c1)nc(-c1ccc3nc(-c4cc(O)cc(O)c4)ccc3c1)n2C1CCCCC1,NS5B polymerase,inhibition,100 µM,98.05%
O=C(Cc1c[nH]c2ccccc12)Nc1cscc1-c1nc(C(=O)O)c(O)c(=O)[nH]1,HCV polymerase,IC50,-,<25 µM
O=C(O)c1ccc2c(c1)nc(-c1ccc3nc(-c4cc(Cl)ccc4-c4ccc(Cl)cc4)ccc3c1)n2C1CCCCC1,NS5B polymerase,inhibition,33 µM,101%
N#Cc1cccc(C(=O)Nc2ccccc2-c2nc(C(=O)O)c(O)c(=O)[nH]2)c1,HCV polymerase,IC50,-,<100 µM
FC(F)(F)Oc1cccc(COc2cccc(-c3cnc4c(-c5nn[nH]n5)cnn4c3C3CCCCC3)c2)c1,RNA-dependent RNA polymerase,IC50,-,1–10 µM
Cc1ccc(S(=O)(=O)Nc2cc(-c3ccc(F)cc3)sc2C(N)=O)cc1,NS3 ATPase,IC50,-,5–20 µM
O=C(O)c1cc2nc(C3CCCCC3)c(-c3ccc(OCc4ccccc4)cc3)cn2n1,RNA-dependent RNA polymerase,IC50,-,1–10 µM
CC(C)N(C(=O)c1ccc(Cl)cc1Cl)c1cc(-c2cccc(Cl)c2)sc1C(=O)O,NS3 ATPase,IC50,-,<5 µM
O=C(O)c1nc(-c2ccccc2NS(=O)(=O)c2ccc(Br)cc2)[nH]c(=O)c1O,HCV polymerase,IC50,-,<100 µM
COc1cccc(CN(C(=O)C2CCC2)c2cc(-c3ccccc3)sc2C(=O)O)c1,NS3 ATPase,IC50,-,5–20 µM
O=C(N[C@@H](Cc1ccc(O)cc1)C(=O)O)c1cc2nc(-c3cccc(F)c3)c(C3CCCCC3)c(=O)n2[nH]1,RNA-dependent RNA polymerase,IC50,-,<1 µM
O=C(O)c1sc(-c2ccccc2)cc1NC(=O)N1CCN(c2ccc(F)cc2)CC1,NS3 ATPase,IC50,-,>20 µM
COc1cc(OC)cc(-c2ccc3cc(-c4nc5cc(C(=O)O)ccc5n4C4CCCCC4)ccc3n2)c1,NS5B polymerase,inhibition,33 µM,99.76%

Again, the opening 3 rows:

{"structure": "O=C(O)c1nc(-c2cc3ccccc3s2)[nH]c(=O)c1O", "target": "HCV polymerase", "measure": "IC50", "result": "<25 µM"}
{"structure": "O=C(O)c1cnn2c(C3CCCCC3)c(-c3ccc(-c4cccc(Cl)c4)cc3)cnc12", "target": "RNA-dependent RNA polymerase", "measure": "IC50", "result": "1–10 µM"}
{"structure": "C=CCN(C(=O)Cc1ccc2ccccc2c1)c1cc(-c2ccccc2)sc1C(=O)O", "target": "NS3 ATPase", "measure": "IC50", "result": ">20 µM"}